One molecule from patent US20240043505A1 (UNIVERSITY OF PITTSBURGH OF THE COMMONWEALTH SYSTEM OF …, published 2024) can be followed below.

The target in this test is SARS-CoV-2 Munich strain spike glycoprotein on authentic virus (SARS-CoV-2). The test is described as follows: cell-based or functional assay.

B1: Nb20 (VHH)
VHH: QVQLVESGGGLVQAGGSLRLSCAVSGAGAHRVGWFRRAPGKEREFVAAIGASGGMTNYLDSVKGRFTISRDNAKNTIYLQMNSLKPQDTAVYYCAARDIETAEYIYWGQGTQVTVSS
Turning to B1, the “Authentic virus PRNT IC50” value is 0.048 nM.
